Anti-infective test results gathered from many reports (values: NIAID ChemDB through PubChem).

Shared fields: tests in culture; organism: Herpes simplex virus 1; method: plaque count; read-out: EC50

Rows are shuffled and stem from different studies. ECn is the concentration giving n% inhibition of infection, replication or growth.

{"smiles": "COc1ccc2nc3cc(Cl)ccc3c(NN3CCN(C)CC3)c2c1", "cell line": "VERO 76", "result": ">10 µM"}
{"smiles": "Cc1cccc2c1OP(=O)(OC[C@H]1O[C@@H](n3cc(/C=C/Br)c(=O)[nH]c3=O)C[C@@H]1OC(=O)C(C)C)OC2", "strain or isolate": "KUPKA (TK+)", "cell line": "VERO", "result": "0.43 µg/mL"}
{"smiles": "CSc1nsc(-c2ccccc2)c1C(N)=O", "strain or isolate": "F", "cell line": "VERO", "result": ">250 µg/mL"}
{"smiles": "CS(=O)(=O)NC[C@H]1O[C@@H](n2cc(I)c(=O)[nH]c2=O)C[C@@H]1O", "cell line": "BHK", "result": ">0.2 µM"}
{"smiles": "Cc1cccc2c1OP(=O)(OC[C@H]1O[C@@H](n3cc(/C=C/Br)c(=O)[nH]c3=O)C[C@@H]1OC(=O)[C@@H]1CCCN1)OC2", "strain or isolate": "B2006 (TK-)", "cell line": "VERO", "result": ">128 µg/mL"}
{"smiles": "C[C@H]1O[C@@H](O[C@H]2CC[C@@]3(C)[C@H](CC[C@@H]4[C@@H]3CC[C@]3(C)[C@@H](C5=CC(=O)OC5)CC[C@]43O)C2)C[C@H](O)[C@@H]1O[C@@H]1O[C@H](CO)[C@@H](O)[C@H](O)[C@H]1O", "strain or isolate": "29R", "cell line": "VERO", "result": "0.06 µM"}
{"smiles": "CC(=O)NC[C@H]1O[C@@H](n2ccc(=O)[nH]c2=O)C[C@@H]1OC(C)=O", "cell line": "BHK", "result": ">1.6 µM"}
{"smiles": "O=c1[nH]c(=O)n([C@H]2C[C@H](O)[C@@H](COP3(=O)OCc4cc(-c5ccccc5)ccc4O3)O2)cc1/C=C/Br", "strain or isolate": "B2006 (TK-)", "cell line": "VERO", "result": ">128 µg/mL"}
{"smiles": "Nc1nc2c(ncn2COCCO)c(=O)[nH]1", "strain or isolate": "KOS", "cell line": "VERO", "result": "0.29 µM"}
{"smiles": "COc1ccc2nc3cc(Cl)ccc3c(N3CCC(O)CC3)c2c1", "cell line": "VERO 76", "result": ">60 µM"}
{"smiles": "Cc1cn([C@H]2C[C@H](O)[C@@H](CN=[N+]=[N-])O2)c(=O)[nH]c1=O", "cell line": "BHK", "result": ">1 µM"}
{"smiles": "CCSc1nsc(-c2ccccc2)c1C#N", "strain or isolate": "F", "cell line": "VERO", "result": ">100 µg/mL"}
{"smiles": "C[C@H]1O[C@@H](O[C@H]2[C@@H](O)C[C@H](O[C@H]3CC[C@@]4(C)[C@H](CC[C@@H]5[C@@H]4CC[C@]4(C)[C@@H](C6=CC(=O)OC6)CC[C@]54O)C3)O[C@@H]2C)C[C@H](O)[C@@H]1O", "strain or isolate": "KOS", "cell line": "VERO", "result": "0.12 µM"}
{"smiles": "N#Cc1c(SCCCCBr)nsc1-c1ccccc1", "strain or isolate": "F", "cell line": "VERO", "result": ">25 µg/mL"}
{"smiles": "Cc1cccc2c1OP(=O)(OC[C@H]1O[C@@H](n3cc(/C=C/Br)c(=O)[nH]c3=O)C[C@@H]1OC(=O)CN)OC2", "strain or isolate": "KUPKA (TK+)", "cell line": "VERO", "result": "0.42 µg/mL"}
{"smiles": "CCC(CO)Nc1c2ccc(Cl)cc2nc2ccc(OC)cc12", "cell line": "VERO 76", "result": ">100 µM"}
{"smiles": "CCOC(=O)NC[C@H]1O[C@@H](n2cc(I)c(=O)[nH]c2=O)C[C@@H]1O", "cell line": "BHK", "result": ">0.2 µM"}
{"smiles": "O=c1[nH]c(=O)n([C@H]2C[C@H](O)[C@@H](COP3(=O)OCc4cc5ccccc5cc4O3)O2)cc1/C=C/Br", "strain or isolate": "B2006 (TK-)", "cell line": "VERO", "result": ">128 µg/mL"}
{"smiles": "C[C@]12CC[C@H](O)C[C@H]1CC[C@@H]1[C@@H]2C[C@@H](O)[C@]2(C)[C@@H](C3=CC(=O)OC3)CC[C@]12O", "strain or isolate": "29R", "cell line": "VERO", "result": "3.56 µM"}
{"smiles": "CC(=O)NC[C@H]1O[C@@H](n2cc(I)c(=O)[nH]c2=O)C[C@@H]1OC(C)=O", "cell line": "BHK", "result": ">1 µM"}
{"smiles": "C[C@H]1O[C@@H](O[C@H]2[C@@H](O)C[C@H](O[C@H]3[C@@H](O)C[C@H](O[C@H]4CC[C@@]5(C)[C@H](CC[C@@H]6[C@@H]5CC[C@]5(C)[C@@H](C7=CC(=O)OC7)CC[C@]65O)C4)O[C@@H]3C)O[C@@H]2C)C[C@H](O)[C@@H]1O", "strain or isolate": "KOS", "cell line": "VERO", "result": "0.34 µM"}
{"smiles": "COc1ccc2nc3cc(Cl)ccc3c(N3CCN(CCO)CC3)c2c1", "cell line": "VERO 76", "result": ">55 µM"}
{"smiles": "CCC(C)C(N)C(=O)O[C@H]1C[C@H](n2cc(/C=C/Br)c(=O)[nH]c2=O)O[C@@H]1COP1(=O)OCc2cccc(C)c2O1", "strain or isolate": "KUPKA (TK+)", "cell line": "VERO", "result": "0.44 µg/mL"}
{"smiles": "CSc1nsc(-c2ccccc2)c1C(=O)O", "strain or isolate": "F", "cell line": "VERO", "result": ">500 µg/mL"}
{"smiles": "O=c1[nH]c(=O)n([C@H]2C[C@H](O)[C@@H](COP3(=O)OCc4cc(Cl)ccc4O3)O2)cc1/C=C/Br", "strain or isolate": "B2006 (TK-)", "cell line": "VERO", "result": ">128 µg/mL"}
{"smiles": "N#Cc1c(N2CCOCC2)nsc1-c1ccccc1", "strain or isolate": "F", "cell line": "VERO", "result": ">1 µg/mL"}
{"smiles": "CO[C@H]1C[C@H](O[C@H]2CC[C@]3(C=O)[C@H]4CC[C@]5(C)[C@@H](C6=CC(=O)OC6)CC[C@]5(O)[C@H]4CC[C@]3(O)C2)O[C@H](C)[C@H]1O", "strain or isolate": "KOS", "cell line": "VERO", "result": "0.14 µM"}
{"smiles": "N#Cc1c(SCCO)nsc1-c1ccccc1", "strain or isolate": "F", "cell line": "VERO", "result": ">5 µg/mL"}
{"smiles": "CO[C@H]1C[C@H](O[C@H]2CC[C@]3(C=O)[C@H]4CC[C@]5(C)[C@@H](C6=CC(=O)OC6)CC[C@]5(O)[C@@H]4CC[C@]3(O)C2)O[C@H](C)[C@H]1O[C@@H]1O[C@H](CO[C@@H]2O[C@H](CO)[C@@H](O)[C@H](O)[C@H]2O)[C@@H](O)[C@H](O)[C@H]1O", "strain or isolate": "KOS", "cell line": "VERO", "result": "0.33 µM"}
{"smiles": "Cc1cccc2c1OP(=O)(OC[C@H]1O[C@@H](n3cc(/C=C/Br)c(=O)[nH]c3=O)C[C@@H]1OC(=O)[C@H](N)Cc1ccccc1)OC2", "strain or isolate": "B2006 (TK-)", "cell line": "VERO", "result": ">128 µg/mL"}
{"smiles": "C[C@H]1O[C@@H](O[C@H]2CC[C@@]3(C)[C@H](CC[C@@H]4[C@@H]3CC[C@]3(C)[C@@H](C5=CC(=O)OC5)CC[C@]43O)C2)C[C@H](O)[C@@H]1O", "strain or isolate": "29R", "cell line": "VERO", "result": "0.11 µM"}
{"smiles": "CC(=O)CCC(=O)O[C@H]1C[C@H](n2cc(/C=C/Br)c(=O)[nH]c2=O)O[C@@H]1COP1(=O)OCc2ccccc2O1", "strain or isolate": "B2006 (TK-)", "cell line": "VERO", "result": ">128 µg/mL"}